PubChem BioAssay AID1259414 – Drosophila RNAi Screening Center | 2018
The screen tested about 24,000 reagents; shown is an unselected part of those that have a named target and a result. Of all reagents, about 1,210 (5%) got an active call. 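Inactive calls also include excluded dsRNAs with several or no targets, genes unexpressed in JW18, and well A1, regardless of score.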 Unmarked entries are inactive. No sequences are given here.

- Screen: 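Genome-wide screen for host control of endosymbiont load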 (primary screen)
- Cells: Drosophila JW18 cells infected with Wolbachia
- Reagents: long dsRNA against Drosophila genes, 0.25 µg dsRNA per well of a 384-well plate
- Timing: 5 days
- Challenge: cells persistently infected with Wolbachia before knock-down; no added drug
- Measurement: 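Imaged fluorescence in situ signal for Wolbachia 23S rRNA per DAPI-counted host cell, given as a robust z-score within each plate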
- Reading the numbers: Wolbachia per cell robust z: higher = more Wolbachia per host cell than the plate typical
- Hit rule: 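Hit when robust z is 1.5 or more, or -1.5 or less, in at least two of three replicates; excludes dsRNAs with several or no targets, genes not expressed in JW18 and well A1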

CG13369 [DRSC18481]
- Wolbachia per cell robust z, rep 1: -0.886
- Wolbachia per cell robust z, rep 2: -1.37
- Wolbachia per cell robust z, rep 3: -0.595

CG13369 [DRSC29455]
- Wolbachia per cell robust z, rep 1: -0.346
- Wolbachia per cell robust z, rep 2: -6.88
- Wolbachia per cell robust z, rep 3: 0.235

CG42360 [DRSC04224]
- Wolbachia per cell robust z, rep 1: 0.0596
- Wolbachia per cell robust z, rep 2: 0.31
- Wolbachia per cell robust z, rep 3: -0.00931

CG33109 [DRSC16533]
- Wolbachia per cell robust z, rep 1: -1.68
- Wolbachia per cell robust z, rep 2: -0.253
- Wolbachia per cell robust z, rep 3: -0.581

mtm [DRSC03576]
- Wolbachia per cell robust z, rep 1: 1.62
- Wolbachia per cell robust z, rep 2: -1.52
- Wolbachia per cell robust z, rep 3: -0.629

CG6432 [DRSC16039]
- Wolbachia per cell robust z, rep 1: 1.61
- Wolbachia per cell robust z, rep 2: -9.51
- Wolbachia per cell robust z, rep 3: 2.45

Cyp6a22 [DRSC07382]
- Wolbachia per cell robust z, rep 1: 0.218
- Wolbachia per cell robust z, rep 2: -1.22
- Wolbachia per cell robust z, rep 3: -0.414

Cyp6a22 [DRSC24011]
- Wolbachia per cell robust z, rep 1: 0.962
- Wolbachia per cell robust z, rep 2: -0.0503
- Wolbachia per cell robust z, rep 3: -1.15

Fcp3C [DRSC18665]
- Wolbachia per cell robust z, rep 1: -0.836
- Wolbachia per cell robust z, rep 2: -8.23
- Wolbachia per cell robust z, rep 3: -0.427

Bet1 [DRSC10088]
- Wolbachia per cell robust z, rep 1: -0.741
- Wolbachia per cell robust z, rep 2: 1.79
- Wolbachia per cell robust z, rep 3: -0.249

E(spl)mdelta-HLH [DRSC16698]
- Wolbachia per cell robust z, rep 1: -0.264
- Wolbachia per cell robust z, rep 2: 0.0745
- Wolbachia per cell robust z, rep 3: 0.563

E(spl)mdelta-HLH [DRSC40669]
- Wolbachia per cell robust z, rep 1: -0.176
- Wolbachia per cell robust z, rep 2: -0.334
- Wolbachia per cell robust z, rep 3: -0.67

Targets listed so far whose gene name starts with E or e (2):
E(spl)mdelta-HLH [DRSC16698]
- Wolbachia per cell robust z, rep 1: -0.264
- Wolbachia per cell robust z, rep 2: 0.0745
- Wolbachia per cell robust z, rep 3: 0.563

E(spl)mdelta-HLH [DRSC40669]
- Wolbachia per cell robust z, rep 1: -0.176
- Wolbachia per cell robust z, rep 2: -0.334
- Wolbachia per cell robust z, rep 3: -0.67
